Assay: Pigskin staining test
Set-up: species or system pig; key to Staining: +: tends to stain certain surfaces; −: do not stain
Settings: for Staining Results: about 10 μL on pigskin, about 24 hours, room temperature; for Staining: Table 14 summary

| Compound | Staining Results (0.20% solution) | Staining | Staining Results (0.14% solution) |
| --- | --- | --- | --- |
| O=Cc1cccc(C=O)c1 [IPA, isophthalaldehyde] | Non-Staining | − |  |
| O=Cc1ccc(C=O)cc1 [TPA, terephthalaldehyde] |  | − |  |
| O=Cc1ccccc1C=O [OPA, phthalaldehyde] |  | + | Dark Staining |

— patent US7476767B2, “Alpha-hydroxy sulfonate aldehydes, germicidal compositions containing the alpha-hydroxy sulfonate aldehydes, or mixtures of alpha-hydroxy sulfonate aldehydes and phthalaldehydes, and methods of using the compounds or compositions for disinfection or sterilization” (Ethicon, Inc., priority 2004, dated 2009)
